The values that follow come from patent US20090297521A1.

The target of the assay is human CD33 (cell surface antigen, on U937, HL-60, THP-1, primary AML cells or transfected 293T cells) (human) (UniProt P20138). In words: cell-based or functional assay.

Substance “CD33-ETA′ (recombinant anti-CD33 scFv-ETA′ immunotoxin, STREP-His-CD33-ETA-KDEL) (from UniProt P11439 277-633)” yielded a % cell death, MNCs of AML patient 1 (M4, BM, ~50% CD33+) of 20%; a % cell death, MNCs of AML patient 2 (M1, PB, ~50% CD33+) of 30%; a % cell death, MNCs of AML patient 3 (M1, PB, ~65% CD33+) of 9%; a % cell death, MNCs of AML patient 4 (M4/M5, PB, ~70% CD33+) of 9%. This substance also yielded a % cell death, MNCs of AML patient 5 (M6, BM, ~80% CD33+) of 0%; a % cell death, MNCs of AML patient 6 (M4, BM, ~80% CD33+) of 6%; a % cell death, MNCs of AML patient 10 (M4, BM, ~25% CD33+; GM-CSF, IL-3) of 19%; a dead U937 cells (Annexin V+, PI+) after 24 h, 100 ng/ml of 18%. This substance had a dead U937 cells (Annexin V+, PI+) after 48 h, 100 ng/ml of 53%; a dead U937 cells (Annexin V+, PI+) after 72 h, 100 ng/ml of 84%; an early apoptotic U937 cells (Annexin V+, PI-) after 24 h, 100 ng/ml of 36%; an early apoptotic U937 cells (Annexin V+, PI-) after 48 h, 100 ng/ml of 17%. The early apoptotic U937 cells (Annexin V+, PI-) after 72 h, 100 ng/ml was found to be 8%.
